Usually pKd stands for the Kd on a negative log10 scale, so that one unit is a factor of ten. High values mean a low Kd, low ones a high Kd.

The results in this text go back to patent US11345912B2, “Directed evolution of multivalent glycopeptides that tightly bind to target proteins” (Brandeis University, priority 2013, dated 2022).

This assay deals with 2G12. Kind of assay: Binding curve and KD determination of 2G12-glycopeptide interaction (radiolabeled glycopeptide, protein G magnetic bead capture, scintillation counting). The settings on record: Table 4; ribosomally translated radiolabeled glycopeptide with His6/FLAG tag, room temperature, fit Fbound=(Fmax[2G12])/(KD+[2G12]); error = standard error of fit. How it is done:
The resulting mRNAs were purified by denaturing PAGE or MEGAclear kit (Ambion), and 1 μM RNA was used in PURE system translation (reaction volume of translation varied). Typically, 25 μL of translated reaction was diluted with 100 μL of binding buffer (50 mM Tris-HCl, pH 7.8, 300 mM NaCl, 5 mM β-mercaptoethanol) and 25 μL of Ni-NTA agarose suspension (Qiagen), and tumbled at room temperature for 1 h. The resins were transferred to 0.22 μm spin-filter rinsing with 100 μL of bind buffer, and washed with 3×200 μL of bind buffer and 2×200 μL of wash buffer (50 mM Tris-HCl, pH 7.8, 5 mM β-mercaptoethanol). The bound peptides were eluted with 2×25 μL of 0.1% TFA. The eluted peptides were analyzed by MALDI-TOF MS, using α-Cyano-4-hydroxycinnamic acid matrix (Sigma), with or without desalting with ZipTip C18 resin (Millipore). […] To quantitate peptide yields, the radioactivities were measured by liquid scintillation counting. […]
Then, the solution was added to 0.12 mg of pre-equilibrated Dynabeads Protein G and tumbled at room temperature for 30 min. […] The radioactivities of the supernatant and wash solutions were measured by liquid scintillation counting as unbound fractions. […] The radioactivities of these solutions and suspensions were measured by liquid scintillation counting separately and the values were combined as apparent bound fractions. […]

pKd: −log10 of the molar value.

Take `CC[C@H](C)[C@H](NC(=O)[C@H](CCCNC(=N)N)NC(=O)[C@H](CC(N)=O)NC(=O)CNC(=O)[C@H](CC(N)=O)NC(=O)[C@H](CC(C)C)NC(=O)[C@H](CCCCN)NC(=O)[C@H](CS)NC(=O)[C@H](CCCCN)NC(=O)[C@H](CC(C)C)NC(=O)[C@@H](NC(=O)[C@@H](NC(=O)[C@@H](NC(=O)[C@@H](NC(=O)[C@H](C)NC(=O)[C@H](CCc1cn(C2CCC(OC3O[C@H](CO[C@H]4O[C@H](CO[C@H]5O[C@H](CO)[C@@H](O)[C@H](O)[C@@H]5O[C@H]5O[C@H](CO)[C@@H](O)[C@H](O)[C@@H]5O)[C@@H](O)[C@H](O[C@H]5O[C@H](CO)[C@@H](O)[C@H](O)[C@@H]5O[C@H]5O[C@H](CO)[C@@H](O)[C@H](O)[C@@H]5O)[C@@H]4O)[C@@H](O)[C@H](O[C@H]4O[C@H](CO)[C@@H](O)[C@H](O)[C@@H]4O[C@H]4O[C@H](CO)[C@@H](O)[C@H](O)[C@@H]4O[C@H]4O[C@H](CO)[C@@H](O)[C@H](O)[C@@H]4O)[C@@H]3O)CC2)nn1)NC(=O)[C@@H]1CCCN1C(=O)[C@H](CCCCN)NC(=O)[C@H](CO)NC(=O)[C@H](Cc1ccc(O)cc1)NC(=O)[C@H](CC(C)C)NC(=O)[C@H](CC(N)=O)NC(=O)[C@H](CCc1cn(C2CCC(OC3O[C@H](CO[C@H]4O[C@H](CO[C@H]5O[C@H](CO)[C@@H](O)[C@H](O)[C@@H]5O[C@H]5O[C@H](CO)[C@@H](O)[C@H](O)[C@@H]5O)[C@@H](O)[C@H](O[C@H]5O[C@H](CO)[C@@H](O)[C@H](O)[C@@H]5O[C@H]5O[C@H](CO)[C@@H](O)[C@H](O)[C@@H]5O)[C@@H]4O)[C@@H](O)[C@H](O[C@H]4O[C@H](CO)[C@@H](O)[C@H](O)[C@@H]4O[C@H]4O[C@H](CO)[C@@H](O)[C@H](O)[C@@H]4O[C@H]4O[C@H](CO)[C@@H](O)[C@H](O)[C@@H]4O)[C@@H]3O)CC2)nn1)NC(=O)[C@@H](NC(=O)[C@@H](NC(=O)[C@H](CO)NC(=O)[C@@H]1CCCN1C(=O)[C@@H](NC(=O)[C@H](CC(N)=O)NC(=O)[C@H](CCCCN)NC(=O)[C@H](Cc1ccc(O)cc1)NC(=O)[C@H](CCc1cn(C2CCC(OC3O[C@H](CO[C@H]4O[C@H](CO[C@H]5O[C@H](CO)[C@@H](O)[C@H](O)[C@@H]5O[C@H]5O[C@H](CO)[C@@H](O)[C@H](O)[C@@H]5O)[C@@H](O)[C@H](O[C@H]5O[C@H](CO)[C@@H](O)[C@H](O)[C@@H]5O[C@H]5O[C@H](CO)[C@@H](O)[C@H](O)[C@@H]5O)[C@@H]4O)[C@@H](O)[C@H](O[C@H]4O[C@H](CO)[C@@H](O)[C@H](O)[C@@H]4O[C@H]4O[C@H](CO)[C@@H](O)[C@H](O)[C@@H]4O[C@H]4O[C@H](CO)[C@@H](O)[C@H](O)[C@@H]4O)[C@@H]3O)CC2)nn1)NC=O)[C@@H](C)CC)[C@@H](C)O)[C@@H](C)O)[C@@H](C)O)C(C)C)[C@@H](C)O)[C@@H](C)O)C(=O)N[C@@H](CO)C(=O)NCC(=O)N[C@@H](CO)C(=O)NCC(=O)N[C@@H](CO)C(=O)N[C@@H](CC(C)C)C(=O)NCC(=O)N[C@@H](Cc1c[nH]cn1)C(=O)N[C@@H](Cc1c[nH]cn1)C(=O)N[C@@H](Cc1c[nH]cn1)C(=O)N[C@@H](Cc1c[nH]cn1)C(=O)N[C@@H](Cc1c[nH]cn1)C(=O)N[C@@H](Cc1c[nH]cn1)C(=O)N[C@@H](CCCNC(=N)N)C(=O)N[C@@H](CC(=O)O)C(=O)N[C@@H](Cc1ccc(O)cc1)C(=O)N[C@@H](CCCCN)C(=O)N[C@@H](CC(=O)O)C(=O)N[C@@H](CC(=O)O)C(=O)N[C@@H](CC(=O)O)C(=O)N[C@@H](CC(=O)O)C(=O)N[C@@H](CCCCN)C(=O)O` (stereo partly shown) [Clone 12G, KYKNIPSTTXNLYSKPXATVTTLKCKLNGNRIS]: the negative-log Kd (pKd) is less than 6.89.
